ChEMBL document CHEMBL2434960 (Eur J Med Chem, 2013)

Molecular target: Replicase polyprotein 1a (Severe acute respiratory syndrome-related coronavirus, UniProt P0C6U8)

COc1cccc2[nH]c(C(=O)N[C@@H](CC(C)C)C(=O)N[C@@H](C[C@@H]3CCNC3=O)C(=O)c3nc4ccccc4s3)cc12
Kd: 16 nM
